## PSTVd loop 6 mutant pool in Nicotiana benthamiana

Values reported by Wu et al. 2024 (doi:10.1371/journal.ppat.1012142).

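A pool of all variants was put on leaves of three Nicotiana benthamiana plants. Progeny were sequenced from the inoculated region (day 5), the margin of the inoculated leaf (day 10) and systemic leaves (day 12).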

The pool varies loop 6 of the PSTVd intermediate strain in the pattern UNNNCGNNNG; wild type is UGACCGCGAG (upper and lower strand joined, each 5' to 3', the first 5 letters being the upper strand, closing pairs included).

Values are reads per thousand in the sample; higher means more abundant, 0 means not found.
Each value is the mean of three plants.
"Pool" is the share in the plasmid pool used as inoculum, on the same scale.
The inoculated region was read from the minus strand, the other sites from the plus strand.

UGGCCGCAUG (pool 0.222) read inoculated region 0.132; leaf margin 0.0169; systemic leaves 0. For UGUCCGCCUG (pool 0.327) the result was inoculated region 0.106; leaf margin 0.00920; systemic leaves 0. For UCCCCUUACG (pool 0.0131) the result was inoculated region 0; leaf margin 0; systemic leaves 0. UAUCCGAUCG (pool 0.588) read inoculated region 0.0887; leaf margin 0; systemic leaves 0. With UUUGCAGAGG (pool 0.0131) the assay gave inoculated region 0; leaf margin 0; systemic leaves 0. UACGCGGCAG (pool 0.275) read inoculated region 0.118; leaf margin 0; systemic leaves 0.0339. With UAACCGCAAG (pool 0.105) the assay gave inoculated region 3.78; leaf margin 0.768; systemic leaves 0.470. UAAUCGCUAG (pool 0.131) gave inoculated region 0.0717; leaf margin 0; systemic leaves 0. For UUGCCGCGCG (pool 0.261) the result was inoculated region 0.608; leaf margin 0.0415; systemic leaves 0.0265.

UGGCCGGGGG (pool 0.183) gave inoculated region 0.161; leaf margin 0; systemic leaves 0. UGCCCGGGUG (pool 0.209) gave inoculated region 0.0715; leaf margin 0; systemic leaves 0. UUUUCGCAGG (pool 0.144) gave inoculated region 0.0416; leaf margin 0; systemic leaves 0. With UUUGCGCAUG (pool 0.222) the assay gave inoculated region 0.132; leaf margin 0; systemic leaves 0. For UUUCCGCUCG (pool 0.340) the result was inoculated region 0.0420; leaf margin 0.0309; systemic leaves 0. For UAUUCGCCCG (pool 0.301) the result was inoculated region 0.0965; leaf margin 0.0309; systemic leaves 0. UCCUCGAUGG (pool 0.170) read inoculated region 0.0839; leaf margin 0; systemic leaves 0. For UCAUCGGUUG (pool 0.118) the result was inoculated region 0.0599; leaf margin 0; systemic leaves 0. For UAGACGCCAG (pool 0.131) the result was inoculated region 0.0950; leaf margin 0.00773; systemic leaves 0.

For UUGUCGUAUG (pool 0.601) the result was inoculated region 0.137; leaf margin 0.147; systemic leaves 0. UGCCCGAAAG (pool 0.183) gave inoculated region 0.625; leaf margin 0.0846; systemic leaves 0.

The opening 2 entries, copied out:

* UGGCCGCAUG (pool 0.222) -> inoculated region 0.132; leaf margin 0.0169; systemic leaves 0
* UGUCCGCCUG (pool 0.327) -> inoculated region 0.106; leaf margin 0.00920; systemic leaves 0

The authors trace changes outside the varied positions to PCR and sequencing errors or to mutation in the plant; presence does not show that a variant is infectious alone.
With 36,220-57,551 reads a sample, very low values are single reads.
For reference, wild type rose from 20.7 per thousand in the pool to 195, 198, 203 (inoculated region), 629, 591, 734 (leaf margin) and 942, 870, 868 (systemic leaves).